Measured values from several laboratories, pooled; numbers as filed in NIAID ChemDB.

Common to all: whole-cell or culture tests; agent: HIV-1

Two numbers with a dash give a range or band. ECn: concentration that inhibits the pathogen or its effect by n%. Neighbouring rows are from separate reports.

C=C(C)[C@@H]1CC[C@]2(C(=O)O)CC[C@]3(C)[C@H](CC[C@@H]4[C@@]5(C)CC=C(c6ccc(C(=O)NS(=O)(=O)C(C)C)cc6)C(C)(C)[C@@H]5CC[C@]43C)[C@@H]12 ; read by: luciferase ; strain: NL4-3 ; cell line: MT-2 ; read-out: EC50 ; changes: Gag P373S ; result: 1 µM
Cc1ccc(C)c(CSc2c(Cl)ccc[n+]2[O-])c1 ; read by: syncytia ; strain: IIIB ; cell line: CEM ; read-out: EC50 ; changes: RT-Y181C ; result: ≥20 µg/mL
Cc1ccc(-c2cc(-c3ccccc3)n(-c3ccccc3)n2)c(=O)[nH]1 ; read by: luminescence ; strain: UG070 ; cell line: TZM-bl ; read-out: EC50 ; result: 180 µM
CN1CCn2c(nc(C(=O)NCc3ccc(F)cc3)c(O)c2=O)C(NCc2ccccc2)C1 ; read by: p24 ; cell line: MT-4 ; read-out: EC50 ; result: <50 µM
Cc1cccc(CS(=O)(=O)c2cccc[n+]2[O-])c1 ; read by: syncytia ; strain: IIIB ; cell line: CEM ; read-out: EC50 ; result: 6.8 µg/mL
C=C(C)[C@@H]1CC[C@]2(C(=O)O)CC[C@]3(C)[C@H](CC[C@@H]4[C@@]5(C)CC=C(c6ccc(C7(C(=O)O)CC7)cc6)C(C)(C)[C@@H]5CC[C@]43C)[C@@H]12 ; read by: luciferase ; strain: NL4-3 ; cell line: MT-2 ; read-out: EC50 ; changes: Gag P373S ; result: 1 µM
O=CC(OC(=O)c1cc(Oc2cc3c(c(O)c2O)Oc2cc(cc(O)c2O)C(=O)OC2OC4COC(=O)c5cc(O)c(O)c(O)c5-c5c(cc(O)c(O)c5O)C(=O)OC4C(OC(=O)c4cc(O)c(O)c(O)c4)C2OC3=O)c(O)c(O)c1O)C(OC(=O)c1cc(O)c(O)c(O)c1)C1OC(=O)c2cc(O)c(O)c(O)c2-c2c(cc(O)c(O)c2O)C(=O)OCC1O ; read by: cytopathic effect / MTT ; strain: IIIB ; cell line: MT-4 ; read-out: EC50 ; result: 21.7 µg/mL
CCC1=C(C(=O)c2ccc(C(C)(C)C)cc2)C(c2cccc(O)c2)NC(=O)N1 ; read by: p24 / ELISA ; cell line: CEM ; read-out: EC50 ; result: >5 µM
O=C(O)C[C@H]1C(=O)O[C@H]2[C@H](OC(=O)c3cc(O)c(O)c(O)c3)[C@@H](OC(=O)c3cc(O)c(O)c4c3[C@H]1[C@H](O)C(=O)O4)[C@H](OC(=O)c1cc(O)c(O)c(O)c1)O[C@@H]2COC(=O)c1cc(O)c(O)c(O)c1 ; read by: cytopathic effect / MTT ; strain: IIIB ; cell line: MT-4 ; read-out: EC50 ; result: >25 µg/mL
O=[N+]([O-])c1ccc[n+]([O-])c1SCc1ccccc1 ; read by: syncytia ; strain: MN ; cell line: CEM ; read-out: EC50 ; result: 13 µg/mL
O=C1NC(C2CC2)=C(C(=O)OCC2CCCCC2)C(c2cccc(O)c2)N1 ; read by: p24 / ELISA ; cell line: CEM ; read-out: EC50 ; result: >1 µM
Cc1ccc(C)c(CS(=O)(=O)c2ccccn2)c1 ; read by: syncytia ; strain: HE ; cell line: CEM ; read-out: EC50 ; result: 14 µg/mL
O=C(O[C@@H]1[C@H](c2c(O)cc(O)c3c2O[C@H](c2ccc(O)c(O)c2)[C@H](OC(=O)c2cc(O)c(O)c(O)c2)C3)c2c(O)cc(O)c([C@H]3c4c(O)cc(O)c([C@@H]5c6c(O)cc(O)cc6O[C@H](c6ccc(O)c(O)c6)[C@@H]5OC(=O)c5cc(O)c(O)c(O)c5)c4O[C@H](c4ccc(O)c(O)c4)[C@@H]3OC(=O)c3cc(O)c(O)c(O)c3)c2O[C@@H]1c1ccc(O)c(O)c1)c1cc(O)c(O)c(O)c1 ; read by: cytopathic effect / MTT ; strain: IIIB ; cell line: MT-4 ; read-out: EC50 ; result: 22.5 µg/mL
CN1CCn2c(nc(C(=O)NCc3ccc(F)cc3)c(O)c2=O)C1(C)C ; read by: p24 ; cell line: MT-4 ; read-out: EC95 ; result: <1 µM
O=C[C@H](OC(=O)c1cc(O)c(O)c(O)c1Oc1cc2c(c(O)c1O)-c1c3cc(c(O)c1O)Oc1c(cc(O)c(O)c1O)C(=O)O[C@@H](C=O)[C@@H](OC(=O)c1cc(O)c(O)c(O)c1)[C@@H]1OC(=O)c4cc(O)c(O)c(O)c4-c4c(cc(c(O)c4O)Oc4c(cc(O)c(O)c4O)C(=O)O[C@@H](C=O)[C@@H](OC(=O)c4cc(O)c(O)c(O)c4)[C@H](OC3=O)[C@H](O)COC2=O)C(=O)OC[C@H]1O)[C@@H](OC(=O)c1cc(O)c(O)c(O)c1)[C@@H]1OC(=O)c2cc(O)c(O)c(O)c2-c2c(cc(O)c(O)c2O)C(=O)OC[C@H]1O ; read by: cytopathic effect / MTT ; strain: IIIB ; cell line: MT-4 ; read-out: EC50 ; result: 20.2 µg/mL
C[C@@H]1CCO[C@H]2Cn3cc(C(=O)NCc4ccc(F)cc4F)c(=O)c(O)c3C(=O)N12 ; read by: luciferase ; strain: NL4-3 ; cell line: TZM-bl ; read-out: EC50 ; changes: M184V-R263K ; result: 0.0044 µM
CCC1=C(C(=O)OCC2CCCCC2)C(c2ccc(OC(O)[C@H](C)[NH3+])c(Cl)c2)NC(=O)N1 ; read by: p24 / ELISA ; cell line: CEM ; read-out: EC50 ; result: ≤1 µM
COc1cccc2[nH]cc(C(=O)C(=O)N3CCN(C(=O)c4ccccc4)C[C@H]3C)c12 ; read by: virus yield ; strain: BRU ; cell line: MT-2/CXCR4 ; read-out: EC50 ; result: 0.00326 µM
Cc1ccc(-c2cc(-c3ccccc3)n(-c3ccc(F)cc3)n2)c(=O)[nH]1 ; read by: luminescence ; strain: UG070 ; cell line: TZM-bl ; read-out: EC50 ; result: 35.07 µM
CC1c2nc(C(=O)NCc3ccc(F)cc3)c(O)c(=O)n2CCN1Cc1cocn1 ; read by: p24 ; cell line: MT-4 ; read-out: EC95 ; result: <1 µM
Cc1ccc(-c2cc(-c3ccccc3)n(-c3ccc(C)c(C)c3)n2)c(=O)[nH]1 ; read by: luminescence ; strain: VB59 ; cell line: TZM-bl ; read-out: EC50 ; result: >563 µM
CC(=O)N1CCn2c(nc(C(=O)NCc3ccc(F)cc3)c(O)c2=O)C1CN(C)C ; read by: p24 ; cell line: MT-4 ; read-out: EC95 ; result: <50 µM
CCC1=C(C(=O)OCC2CCCCC2)[C@H](c2ccc(OC(=O)OC(C)(C)C)cc2)NC(=O)N1 ; read by: p24 / ELISA ; cell line: CEM ; read-out: EC50 ; result: ≤1 µM
Cc1ccc(C)c(C(C)S(=O)(=O)c2ccc(C)c[n+]2[O-])c1 ; read by: syncytia ; strain: IIIB ; cell line: CEM ; read-out: EC50 ; changes: RT-K103N ; result: 48 µg/mL
Cc1ccc(-c2cc(-c3ccccc3)n(-c3ccccc3C)n2)c(=O)[nH]1 ; read by: luminescence ; strain: VB59 ; cell line: TZM-bl ; read-out: EC50 ; result: >147 µM
Cn1ccc(CN2CCn3c(nc(C(=O)NCc4ccc(F)cc4)c(O)c3=O)C2(C)C)n1 ; read by: p24 ; cell line: MT-4 ; read-out: EC95 ; result: <1 µM
C#CC1=C(C(=O)OCC2CCCCC2)C(c2cccc(O)c2)NC(=O)N1 ; read by: p24 / ELISA ; cell line: CEM ; read-out: EC50 ; result: 1–5 µM
O=C1C=C2C(=O)O[C@H]3[C@@H]4OC(=O)c5cc(O)c(O)c(O)c5-c5c(cc(Oc6c(C(=O)O[C@H]7[C@H](OC(=O)c8cc(O)c(O)c(O)c8)O[C@H](COC(=O)c8cc(O)c(O)c(O)c8)[C@@H](OC(=O)c8cc(O)c(O)c(O)c8)[C@@H]7OC(=O)c7cc(O)c(O)c(O)c7)cc(O)c(O)c6O)c(O)c5O)C(=O)OC[C@H]3O[C@@H](OC(=O)c3cc(O)c(O)c(O)c3)[C@@H]4OC(=O)c3cc(O)c(O)c4c3[C@H]2[C@@](O)(O4)C1=O ; read by: cytopathic effect / MTT ; strain: IIIB ; cell line: MT-4 ; read-out: EC50 ; result: >50 µg/mL
Cc1ccc(C)c(C(C)S(=O)(=O)c2c(C)ccc[n+]2[O-])c1 ; read by: syncytia ; strain: IIIB ; cell line: CEM ; read-out: EC50 ; result: 0.1 µg/mL
CC(C)[C@@H]1CC[C@]2(CO)CC[C@]3(C)[C@H](CC[C@@H]4[C@@]5(C)CC=C(c6ccc(C(=O)O)cc6)C(C)(C)[C@@H]5CC[C@]43C)[C@@H]12 ; read by: luciferase ; strain: NL4-3 ; cell line: MT-2 ; read-out: EC50 ; changes: Gag P373S ; result: 1 µM
CCC1=C(CO)C(c2cccc(O)c2)NC(=O)N1 ; read by: p24 / ELISA ; cell line: CEM ; read-out: EC50 ; result: >5 µM
O=CC(O)C(OC(=O)c1cc(O)c(O)c(O)c1)C1OC(=O)c2cc(O)c(O)c(O)c2-c2c(cc(O)c(O)c2O)C(=O)OCC1O ; read by: cytopathic effect / MTT ; strain: IIIB ; cell line: MT-4 ; read-out: EC50 ; result: 2 µg/mL
CCC1=C(C(=O)OCC2CCCCC2)[C@H](c2ccc(OC(=O)C(C)(C)C)cc2)NC(=O)N1 ; read by: p24 / ELISA ; cell line: CEM ; read-out: EC50 ; result: ≤1 µM
Cc1ccc(C)c(C(Cl)S(=O)(=O)c2cc(C)cc[n+]2[O-])c1 ; read by: syncytia ; strain: MN ; cell line: CEM ; read-out: EC50 ; result: ≥4 µg/mL
CCCCOC(=O)c1cc(O)c(O)c(O)c1 ; read by: cytopathic effect / MTT ; strain: IIIB ; cell line: MT-4 ; read-out: EC50 ; result: >25 µg/mL
O=C(NCc1ccc(F)cc1)c1nc2n(c(=O)c1O)C(=O)N(Cc1ccccc1)CC2 ; read by: p24 ; cell line: MT-4 ; read-out: EC50 ; result: <50 µM
Cc1ccc(-c2cc(-c3ccccc3)n(-c3ccc(C(C)(C)C)cc3)n2)c(=O)[nH]1 ; read by: luminescence ; strain: VB59 ; cell line: TZM-bl ; read-out: EC50 ; result: 6.14 µM
C[C@]1(CO)O[C@@H](n2cnc3c(N)ncnc32)C[C@@H]1O ; read by: luciferase ; cell line: HOS ; read-out: EC50 ; changes: AZT-R (delta)Env ; result: 0.064 µM
O=C(OC[C@H]1O[C@@H](OC(=O)c2cc(O)c(O)c(O)c2)[C@H](OC(=O)c2cc(O)c(O)c(O)c2)[C@@H](OC(=O)c2cc(O)c(O)c(O)c2)[C@@H]1OC(=O)c1cc(O)c(O)c(O)c1)c1cc(O)c(O)c(O)c1 ; read by: cytopathic effect / MTT ; strain: IIIB ; cell line: MT-4 ; read-out: EC50 ; result: >25 µg/mL